Measured values published in patent US20240270828A1.

Biological target: SARS-CoV-2 Spike protein D614G on pseudotyped virus (SARS-CoV-2) (UniProt P0DTC2)
Test: cell-based or functional assay

CV3-25
Neutralization IC50 (µg/ml), PsV D614G: 1.37 µg/mL
